Anti-infective test results gathered from many reports (values: NIAID ChemDB through PubChem).

All rows: enzyme or target tests; agent: Hepatitis C virus; target: Nonstructural protein 5B; endpoint: IC50

Neighbouring rows are from separate reports. ICn: concentration for n% inhibition. a–b is a range or a potency band.

{"SMILES": "CNC(=O)c1c(-c2ccc(F)cc2)oc2cc(N3CCOCC3)c(OC(C)C)cc12", "result": "≤0.5 µM"}
{"SMILES": "COc1nc(Nc2ccc3[nH]ncc3c2)nc(N2CCN(C)CC2)n1", "result": ">10 µg/mL"}
{"SMILES": "O=C(O)CCN1C(=O)C(=Cc2ccc(-c3ccc4c(c3)Cc3ccccc3-4)o2)SC1=S", "result": "≤1 µM"}
{"SMILES": "CCOC(=O)N1CCN(c2nc(Nc3ccc4[nH]ncc4c3)nc(OC)n2)CC1", "result": ">10 µg/mL"}
{"SMILES": "O=C(O)C(=O)/C=C(\\O)c1cccc(NS(=O)(=O)c2cc(Cl)c(Cl)cc2Cl)c1", "result": "0.25 µM"}
{"SMILES": "CNC(=O)c1c(-c2ccc(F)cc2)oc2cc(-c3c(COC)noc3C)c(OC)cc12", "result": "≤0.5 µM"}
{"SMILES": "CCOc1c(F)cc(CCC2(C3CCCC3)CC(=O)CC(=O)O2)cc1F", "result": "1–10 µM"}
{"SMILES": "COc1nc(Nc2ccc3[nH]ncc3c2)nc(NC2CC2)n1", "result": "1–10 µg/mL"}
{"SMILES": "O=C(O)CCc1ccc(N2C(=O)C(=Cc3ccc(-c4ccc(Cl)c(Cl)c4)o3)SC2=S)cc1", "result": "≤1 µM"}
{"SMILES": "CNC(=O)C1CCN(c2nc(Nc3ccc4[nH]ncc4c3)nc(OC)n2)CC1", "result": ">10 µg/mL"}
{"SMILES": "CC(C)Oc1ccc(CCC2(C3CCCC3)CC(=O)CC(=O)O2)cc1", "result": "1–10 µM"}
{"SMILES": "CNC(=O)c1c(-c2ccc(F)cc2)oc2cc(N)c(OCc3ccccc3)cc12", "result": "≤0.5 µM"}
{"SMILES": "COc1nc(Nc2ccc3[nH]ncc3c2)nc(N2CCCC2)n1", "result": "1–10 µg/mL"}
{"SMILES": "COc1ccc(CCC2(C3CCCC3)CC(=O)CC(=O)O2)cc1F", "result": "<1 µM"}
{"SMILES": "O=C(O)c1ccc(N2C(=O)C(=Cc3ccccc3)SC2=S)cc1", "result": "≤1 µM"}
{"SMILES": "CNC(=O)c1c(-c2ccc(C)cc2)oc2ccc(Cl)cc12", "result": "≤0.5 µM"}
{"SMILES": "CNC(=O)CN1CCN(c2nc(Nc3ccc4cn[nH]c4c3)nc(OC)n2)CC1", "result": ">10 µg/mL"}
{"SMILES": "O=C1CC(=O)OC(CCc2ccc(OCC3CC3)c(F)c2)(C2CCCC2)C1", "result": "1–10 µM"}
{"SMILES": "O=C(O)CCN1C(=O)C(=Cc2ccc(-c3cc(C(F)(F)F)ccc3Cl)o2)SC1=S", "result": "≤1 µM"}
{"SMILES": "CNC(=O)c1c(-c2ccc(F)cc2)oc2cc(NC(N)=O)c(OC(C)C)cc12", "result": "≤0.5 µM"}
{"SMILES": "Cc1ccc(-c2ccc(C=C3SC(=S)N(CCC(=O)O)C3=O)o2)nc1", "result": "≤1 µM"}
{"SMILES": "CNC(=O)c1c(-c2ccc(C)c(F)c2)oc2ccc(OC)cc12", "result": "≤0.5 µM"}
{"SMILES": "COc1ccc(-c2ccc(C=C3SC(=S)N(c4ccc(C(=O)O)cc4)C3=O)o2)nn1", "result": "≤1 µM"}
{"SMILES": "COc1nc(Nc2ccc3cn[nH]c3c2)nc(N2CCN(CCO)CC2)n1", "result": "0.1–1 µg/mL"}
{"SMILES": "CCOc1cc2c(C(=O)NC)c(-c3ccc(F)cc3)oc2cc1-c1c(C)noc1C", "result": "≤0.5 µM"}
{"SMILES": "O=C(O)c1ccc(N2C(=O)C(=Cc3ccc(-c4cc(F)cc(F)c4)o3)SC2=S)cc1", "result": "≤1 µM"}
{"SMILES": "CNC(=O)c1c(-c2ccc(F)cc2)oc2cc(C3CCCN3S(C)(=O)=O)c(OC(C)C)cc12", "result": "≤0.5 µM"}
{"SMILES": "Cc1ccnc(C=C2SC(=S)N(c3ccc(C(=O)O)cc3)C2=O)c1", "result": "≤1 µM"}

Repeating the first 4 entries:

| SMILES | result |
|---|---|
| CNC(=O)c1c(-c2ccc(F)cc2)oc2cc(N3CCOCC3)c(OC(C)C)cc12 | ≤0.5 µM |
| COc1nc(Nc2ccc3[nH]ncc3c2)nc(N2CCN(C)CC2)n1 | >10 µg/mL |
| O=C(O)CCN1C(=O)C(=Cc2ccc(-c3ccc4c(c3)Cc3ccccc3-4)o2)SC1=S | ≤1 µM |
| CCOC(=O)N1CCN(c2nc(Nc3ccc4[nH]ncc4c3)nc(OC)n2)CC1 | >10 µg/mL |